This is an account of results in patent publication US8273773B2 (priority 2008, dated 2012).

Structures are written as SMILES.
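Note: recombinant His-tagged enzyme from E. coli, radiolabeled nucleotide incorporation into acid-insoluble RNA read by scintillation after filtration, no-enzyme background subtracted, activity relative to positive control.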

For one experiment, the target named is HCV polymerase (NS5B570n-Con1) (Hepatitis C virus genotype 1b, UniProt Q9WMX2). Conditions: read-out: IC50 HCV NS5B RNA Polymerase Assay; values without asterisk; 20 nM NS5B570n-Con1 enzyme, 20 nM cIRES RNA template.
One may read the IC50 as the concentration that inhibits the measured activity by half. Turning to `CC(C)(C)c1cccc(-c2ccc[nH]c2=O)c1`, the IC50 worked out at 3960 nM.
Regarding `COc1c(CC(CN2CCCC2)c2ccc(NS(C)(=O)=O)cc2)cc(-c2ccc[nH]c2=O)cc1C(C)(C)C` (stereo not drawn), the IC50 stood at 47 nM.
Consider `COc1c(CCc2ccc(NS(C)(=O)=O)cc2)cc(-c2cc(Br)c[nH]c2=O)cc1C(C)(C)C`, for which the IC50 was determined as 27 nM.
As for `COc1c(C(=O)c2ccc(CN)cc2)cc(-c2ccc[nH]c2=O)cc1C(C)(C)C`, the IC50 was determined as 65 nM.
The same measure, in the same setting: the same measure for `COc1c(C(=O)NCCc2cccnc2)cc(-c2ccc[nH]c2=O)cc1C(C)(C)C`: 1050 nM; for `CC(C)(C)c1cc(/C=C/c2ccc(NS(C)(=O)=O)cc2)cc(-c2ccc[nH]c2=O)c1` [I-141, N-(4-{(E)-2-[3-tert-Butyl-5-(2-oxo-1,2-dihydro-pyridin-3-yl)-phenyl]-vinyl}-phenyl)-methanesulfonamide]: 3 nM; for `CC(C)(C)c1cc(CCC(=O)O)c(O)c(-c2ccc[nH]c2=O)c1`: 957 nM.

Still in this experiment, the particulars now being: read-out: IC50 HCV NS5B RNA Polymerase Assay; values without asterisk; 20 nM NS5B570n-Con1 enzyme, 20 nM cIRES RNA template; tested form: formate.
Regarding `COc1c(C(=O)NC2CCNCC2)cc(-c2ccc[nH]c2=O)cc1C(C)(C)C`, the IC50 was 129 nM.
Same read-out and setting: the same measure for `COc1c(C(=O)NC2CCCNC2)cc(-c2ccc[nH]c2=O)cc1C(C)(C)C` (stereo not drawn): 496 nM.
